From PMC6222558, “Synthesis and Evolution of Berberine Derivatives as a New Class of Antiviral Agents against Enterovirus 71 through the MEK/ERK Pathway and Autophagy” (Molecules : A Journal of Synthetic Chemistry and Natural …, 2018)

What was measured:
Assay type in all cases: cell-based, enterovirus 71 (EV71)
Settings in all cases: ratio of TC50 and IC50
[1] = test system: EV71 JS-52 strain (genotype C4); assay: CPE inhibition assay for anti-EV71, JS-52 strain
Experimental: (§1) Thus, all newly synthesized BBR analogues were screened for their anti-EV71 potencies in African green monkey kidney (Vero) cells taking BBR as the positive control. EV71 strains used in the present study include different genotype strains, such as H strain (VR-1432, genotype C2), BrCr strain (VR-1775, genotype A), and JS-52 and SHZH98 (genotype C4). The potency against EV71 strains above mentioned of each tested compound was evaluated by the combination of its IC50 and selectivity index (SI) value as the important therapeutic indication.
(§2) Vero cells were purchased from the American Type Culture Collection (ATCC, […], MD, USA), and were cultured in Minimum Essential Medium (MEM) supplemented with 10% fetal bovine serum (FBS) (GIBCO, Grand Island, NY, USA) and antibiotics (100 U/mL penicillin and […] streptomycin) at 37 °C in a 5% CO2 incubator. EV71 strain SHZH98 isolated from the throat swab sample of an HFMD case occurring in 1998 in China was kindly provided by Dr. Qi Jin (Institute of Pathogen Biology, Chinese Academy of Medical Science and Peking Union Medical School, Beijing, China), and JS-52 strain was a kind gift from Dr. Xiangzhong Ye (Beijing Wantai Biological Pharmacy Enterprise Co., Ltd., Beijing, China). The EV71 BrCr and H strains were purchased from the ATCC. All of EV71 strains were passaged in Vero cells.
(§3) The anti-EV71 activities of all tested compounds were detected by the virus-induced CPE assay. Briefly, cells (3 × 10^4 cells/well) were plated into 96-well culture plates and incubated for 16 h. Then, remove the medium and infected cells with EV71 of 100 × TCID50 (50% tissue culture infective doses) in serum-free medium for 1 h at 37 °C. After that, the unbound viruses were removed and various concentrations of tested compounds were supplemented for incubation of another 72 h. […] TC50 defined as the concentration that leads to the 50% of CPE which determined by the same method in 72 h. In addition, the cells were stained the cells were colored with 0.5% crystal violet in 20% ethanol for 15 min at room temperature and the cells were imaged after rinsed with PBS.

[2] = test system: EV71 BrCr strain (VR-1775, genotype A); assay: CPE inhibition assay for anti-EV71, BrCr strain
Experimental: as §1, §2, §3

[3] = test system: EV71 SHZH98 strain (genotype C4); assay: CPE inhibition assay for anti-EV71, SHZH98 strain
Experimental: as §1, §2, §3

[4] = test system: EV71 H strain (VR-1432, genotype C2); assay: CPE inhibition assay for anti-EV71, H strain
Experimental: as §1, §2, §3

## COc1cccc(C(=O)COc2c(OC)ccc3cc4[n+](cc23)CCc2cc3c(cc2-4)OCO3)c1 [2f, 2,3-Methylenedioxy-9-m-methoxyphenylformylmethylenoxy-10-methoxy protoberberine chloride]
[1]
  JS-52 Strain SI: 5.74
[2]
  BrCr Strain SI: 4.17
[3]
  SHZH98 Strain SI: 4.97

## COc1cc2c(cc1OC)-c1cc3ccc(OC)c(O)c3c[n+]1CC2 [compound 3]
[4]
  H Strain SI: 2.10
[1]
  JS-52 Strain SI: 2.50
[2]
  BrCr Strain SI: 1.87
[3]
  SHZH98 Strain SI: 1.93

## COc1cc2c(cc1OC)-c1cc3ccc(OC)c(OCC(=O)OCc4ccccc4)c3c[n+]1CC2 [4c, 2,3,10-Trimethoxy-9-benzyloxyformylmethylenoxy protoberberine chloride]
[1]
  JS-52 Strain SI: 4.55
[2]
  BrCr Strain SI: 5.57

## COc1ccc2cc3[n+](cc2c1OCC(=O)OCc1ccccc1)CCc1cc2c(cc1-3)OCO2 [2d, 2,3-Methylenedioxy-9-benzyloxyformylmethylenoxy-10-methoxyprotoberberine chloride]
[4]
  H Strain SI: 6.7
[1]
  JS-52 Strain SI: 11.6
[2]
  BrCr Strain SI: 9.72
[3]
  SHZH98 Strain SI: 5.58

## CCOC(=O)COc1cc2c(cc1OC)-c1cc3ccc(OC)c(OC)c3c[n+]1CC2 [5a, 2,9,10-Trimethoxy-3-ethyloxyformylmethylenoxy protoberberine chloride]
[4]
  H Strain SI: 1.93
[1]
  JS-52 Strain SI: 2.29
[2]
  BrCr Strain SI: 2.01
[3]
  SHZH98 Strain SI: 1.74

## COc1ccc2cc3[n+](cc2c1OCC(=O)OCC(C)C)CCc1cc2c(cc1-3)OCO2 [2b, 2,3-Methylenedioxy-9-isobutyloxyformylmethylenoxy-10-methoxy protoberberine chloride]
[1]
  JS-52 Strain SI: 3.89
[2]
  BrCr Strain SI: 10.9
[3]
  SHZH98 Strain SI: 4.08

## COc1cc2c(cc1OC)-c1cc3ccc(OC)c(OCC(=O)c4ccc(C(F)(F)F)cc4)c3c[n+]1CC2 [4f, 2,3,10-Trimethoxy-9-p-trifloromethylphenylformylmethylenoxy protoberberine chloride]
[4]
  H Strain SI: 3.73
[1]
  JS-52 Strain SI: 5.65
[2]
  BrCr Strain SI: 4.64
[3]
  SHZH98 Strain SI: 3.73

## CCOC(=O)COc1c(OC)ccc2cc3[n+](cc12)CCc1cc(OC)c(OC)cc1-3 [4a, 2,3,10-Trimethoxy-9-ethyloxyformylmethylenoxy protoberberine chloride]
[4]
  H Strain SI: 3.01

## COc1cc2c(cc1OCC(=O)C(C)(C)C)CC[n+]1cc3c(OC)c(OC)ccc3cc1-2 [5b, 2,9,10-Trimethoxy-3-pivalylmethylenoxy protoberberine chloride]
[4]
  H Strain SI: 2.02
[1]
  JS-52 Strain SI: 2.44
[2]
  BrCr Strain SI: 2.44
[3]
  SHZH98 Strain SI: 1.20

## COc1ccc2cc3[n+](cc2c1OC(=O)OCc1ccccc1)CCc1cc2c(cc1-3)OCO2 [2h, 2,3-Methylenedioxy-9-benzyloxyformyloxy-10-methoxy protoberberine chloride]
[2]
  BrCr Strain SI: 2.59

## COc1ccc2cc3[n+](cc2c1OC)CCc1cc2c(cc1-3)OCO2 [BBR, berberine]
[4]
  H Strain SI: 6.93
[1]
  JS-52 Strain SI: 10.5
[2]
  BrCr Strain SI: 15.6
[3]
  SHZH98 Strain SI: 5.22

## COc1cc2c(cc1OCC(=O)OCc1ccccc1)CC[n+]1cc3c(OC)c(OC)ccc3cc1-2 [5c, 2,9,10-Trimethoxy-3-benzyloxyformylmethylenoxy protoberberine chloride]
[4]
  H Strain SI: 2.65
[1]
  JS-52 Strain SI: 2.46
[2]
  BrCr Strain SI: 5.62
[3]
  SHZH98 Strain SI: 2.01

## COc1cc2c(cc1OCC(=O)c1ccc(C(F)(F)F)cc1)CC[n+]1cc3c(OC)c(OC)ccc3cc1-2 [5f, 2,9,10-Trimethoxy-3-p-trifloromethylphenylformylmethylenoxy protober berine chloride]
[4]
  H Strain SI: 3.54
[1]
  JS-52 Strain SI: 5.36
[2]
  BrCr Strain SI: 5.63
[3]
  SHZH98 Strain SI: 2.09

## COc1cc2c(cc1OC)-c1cc3ccc(OC)c(OCC(=O)c4ccc(C)cc4)c3c[n+]1CC2 [4d, 2,3,10-Trimethoxy-9-p-tolylformylmethylenoxy protoberberine chloride]
[1]
  JS-52 Strain SI: 1.13
[2]
  BrCr Strain SI: 1.13

## COc1ccc2cc3[n+](cc2c1OCC(=O)O)CCc1cc2c(cc1-3)OCO2 [2d-a, 2,3-Methylenedioxy-9-carboxylmethylenoxy-10-methoxy protoberberine chloride]
[1]
  JS-52 Strain SI: 3.00
[2]
  BrCr Strain SI: 3.00

## CCOC(=O)Oc1c(OC)ccc2cc3[n+](cc12)CCc1cc2c(cc1-3)OCO2 [2i, 2,3-Methylenedioxy-9-ethyloxyformyloxy-10-methoxy protoberberine chloride]
[4]
  H Strain SI: 5.37
[1]
  JS-52 Strain SI: 3.83
[2]
  BrCr Strain SI: 4.97
[3]
  SHZH98 Strain SI: 3.65

## COc1cccc(C(=O)COc2cc3c(cc2OC)-c2cc4ccc(OC)c(OC)c4c[n+]2CC3)c1 [5e, 2,9,10-Trimethoxy-3-m-methoxyphenylformylmethylenoxy protoberberine chloride]
[4]
  H Strain SI: 2.65
[1]
  JS-52 Strain SI: 3.18
[2]
  BrCr Strain SI: 3.01
[3]
  SHZH98 Strain SI: 3.03

## COc1cc2c(cc1O)CC[n+]1cc3c(OC)c(OC)ccc3cc1-2 [JTH, jatrorrhizine, reference compound]
[1]
  JS-52 Strain SI: 1.73
[3]
  SHZH98 Strain SI: 1.73

## COc1cc2c(cc1OC)-c1cc3ccc(OC)c(OCC(=O)C(C)(C)C)c3c[n+]1CC2 [4b, 2,3,10-Trimethoxy-9-pivalylmethylenoxy protoberberine chloride]
[1]
  JS-52 Strain SI: 3.05
[2]
  BrCr Strain SI: 2.32

## COc1ccc2cc3[n+](cc2c1OCC(=O)c1ccc(C)cc1)CCc1cc2c(cc1-3)OCO2 [2e, 2,3-Methylenedioxy-9-p-tolylformylmethylenoxy-10-methoxy protoberberine chloride]
[1]
  JS-52 Strain SI: 5.40
[2]
  BrCr Strain SI: 6.47
[3]
  SHZH98 Strain SI: 5.08

## COc1cc2c(cc1OCC(=O)c1ccc(C)cc1)CC[n+]1cc3c(OC)c(OC)ccc3cc1-2 [5d, 2,9,10-Trimethoxy-3-p-methylphenylformylmethylenoxy protoberberine chloride]
[1]
  JS-52 Strain SI: 4.55
[3]
  SHZH98 Strain SI: 3.41

## COc1cc2c(cc1OC)-c1cc3ccc(OC)c(OC(=O)OCc4ccccc4)c3c[n+]1CC2 [4g, 2,3,10-Trimethoxy-9-benzyloxyformyloxy protoberberine chloride]
[1]
  JS-52 Strain SI: 2.72
